49 molecules from patent publication US7964624B1, “Inhibitors of serine proteases” (priority 2005, dated 2011) can be followed below.

By UniProt entry, the sequences of proteins in these tests, tags left out. Chains listed by the source or under a name are the forms on record and can include a tag or linker. Residues count along the entry.
UniProt P27958, 1658-1711 partner limits assumed: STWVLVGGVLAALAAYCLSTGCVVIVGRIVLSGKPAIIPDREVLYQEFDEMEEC
UniProt P27958, 1027-1711 with tags or gaps with the stated changes: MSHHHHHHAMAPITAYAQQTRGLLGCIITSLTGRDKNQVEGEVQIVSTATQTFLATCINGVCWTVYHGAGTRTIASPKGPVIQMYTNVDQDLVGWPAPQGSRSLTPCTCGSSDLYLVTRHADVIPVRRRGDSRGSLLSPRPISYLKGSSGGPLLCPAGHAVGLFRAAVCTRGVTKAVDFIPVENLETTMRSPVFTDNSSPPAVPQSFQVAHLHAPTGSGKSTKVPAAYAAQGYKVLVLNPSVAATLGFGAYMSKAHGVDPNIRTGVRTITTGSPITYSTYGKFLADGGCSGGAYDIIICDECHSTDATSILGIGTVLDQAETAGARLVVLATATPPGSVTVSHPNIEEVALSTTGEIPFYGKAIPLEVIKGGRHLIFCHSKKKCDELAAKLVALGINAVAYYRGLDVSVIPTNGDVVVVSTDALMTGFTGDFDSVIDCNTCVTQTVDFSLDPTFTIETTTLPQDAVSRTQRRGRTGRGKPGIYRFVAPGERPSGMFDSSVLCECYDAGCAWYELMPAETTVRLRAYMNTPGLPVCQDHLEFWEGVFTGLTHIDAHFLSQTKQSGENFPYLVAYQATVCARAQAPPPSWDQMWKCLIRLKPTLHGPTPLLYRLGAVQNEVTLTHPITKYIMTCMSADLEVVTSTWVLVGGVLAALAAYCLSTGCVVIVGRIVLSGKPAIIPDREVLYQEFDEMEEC

This experiment addresses full-length hepatitis C viral protein NS3•4A (Hepatitis C virus genotype 1a, UniProt P27958). Briefly: HCV NS3 Peptide Cleavage Assay (Enzyme Assay 2), apparent Ki.
[1] abbreviates: read-out: Enzyme Assay 2, HCV NS3 Peptide Cleavage Assay, apparent Ki.
Setting [2] is: read-out: Enzyme Assay 2 (HCV NS3 Peptide Cleavage Assay) activity, apparent Ki class.

The structures appear in SMILES notation. Read-outs that look alike come from different tables or passages of the source.

Consider `COc1cc(OC)c(C2=NO[C@]3(C2)C[C@@H](C(=O)N[C@@H](CC2CC2)C(=O)C(N)=O)N(C(=O)[C@@H](NC(=O)[C@@H]2C[C@H]2c2ccccc2)C(C)(C)C)C3)cc1C`, for which the Ki under setting [1] is less than 0.1 µM. The same measure, in the same setting: with `CCC[C@H](NC(=O)[C@@H]1C[C@]2(CC(c3cccc(Cl)c3)=NO2)CN1C(=O)[C@@H](NC(=O)[C@@H]1C[C@H]1CC)C(C)(C)C)C(=O)C(=O)NC1CC1` the figure was less than 0.1 µM. Consider `CCC[C@H](NC(=O)[C@@H]1C[C@]2(CC(c3cc(Cl)c(OCC)cc3OC)=NO2)CN1C(=O)[C@@H](NC(=O)OC(C)(C)C)C(C)(C)C)C(=O)C(=O)NC`, for which, under setting [1], the Ki fell in the range of 0.1 to 0.5 µM. Turning to `CCC[C@H](NC(=O)[C@@H]1C[C@]2(CC(c3cc(Cl)ccc3OCC)=NO2)CN1C(=O)[C@@H](NC(=O)CC1CCCCC1)C(C)(C)C)C(=O)C(=O)NC1CC1`, the Ki under setting [1] was less than 0.1 µM. Same read-out and setting: under `CCC[C@H](NC(=O)[C@@H]1C[C@]2(CC(c3cc(Cl)c(OC)cc3O)=NO2)CN1C(=O)[C@@H](NC(=O)CC1CCCCC1)C(C)(C)C)C(=O)C(=O)NC1CC1` stands less than 0.1 µM; under `CCNC(=O)C(=O)[C@H](CC1CC1)NC(=O)[C@@H]1C[C@]2(CC(c3cc(C)c(OC)cc3OC)=NO2)CN1C(=O)[C@@H](NC(=O)OC1CCCC1)C(C)(C)C`, less than 0.1 µM.

With `CCC[C@H](NC(=O)[C@@H]1C[C@]2(CC(c3cc(Cl)ccc3OC)=NO2)CN1C(=O)[C@@H](NC(=O)CC(F)(F)F)C(C)(C)C)C(=O)C(=O)NC1CC1`, the Ki under setting [2] was less than 0.1 µM.

As to `CCOc1c(C)cc(C2=NO[C@]3(C2)C[C@@H](C(=O)N[C@@H](CC2CC2)C(=O)C(=O)NC)N(C(=O)[C@@H](NC(=O)OC2CCCC2)C(C)(C)C)C3)cc1C`, the Ki under setting [1] is less than 0.1 µM. Same read-out and setting: under `CCNC(=O)C(=O)[C@H](CC1CC1)NC(=O)[C@@H]1C[C@]2(CC(c3cc(C)c(OCC)c(Cl)c3)=NO2)CN1C(=O)[C@@H](NC(=O)CC1CCCCC1)C(C)(C)C` stands less than 0.1 µM; under `CNC(=O)C(=O)[C@H](CC1CC1)NC(=O)[C@@H]1C[C@]2(CC(c3cccc(Cl)c3)=NO2)CN1C(=O)[C@@H](NC(=O)[C@@H]1C[C@@H]1c1ccccc1)C(C)(C)C`, less than 0.1 µM. The same measure, in the same setting: with `CCC[C@H](NC(=O)[C@@H]1C[C@]2(CC(c3cccc(Cl)c3)=NO2)CN1C(=O)[C@@H](NC(=O)[C@@H]1C[C@H]1C1CCCCC1)C(C)(C)C)C(=O)C(N)=O` the figure was less than 0.1 µM; with `CCC[C@H](NC(=O)[C@@H]1C[C@]2(CC(c3cc(C)c(OC)cc3OC)=NO2)CN1C(=O)[C@@H](NC(=O)OC1CCCC1)C(C)(C)C)C(=O)C(=O)NC`, less than 0.1 µM; with `CNC(=O)C(=O)[C@H](CC1CC1)NC(=O)[C@@H]1C[C@]2(CC(c3cccc(Cl)c3)=NO2)CN1C(=O)[C@@H](NC(=O)[C@H]1CC12CCOCC2)C(C)(C)C`, less than 0.1 µM. Consider `CCC[C@H](NC(=O)[C@@H]1C[C@]2(CC(c3cccc(Cl)c3)=NO2)CN1C(=O)[C@@H](NC(=O)[C@@H]1C[C@H]1CC(C)C)C(C)(C)C)C(=O)C(N)=O`, for which the Ki under setting [1] was less than 0.1 µM. The same measure, in the same setting: under `CC[C@@H]1C[C@H]1C(=O)N[C@H](C(=O)N1C[C@@]2(CC(c3cccc(Cl)c3)=NO2)C[C@H]1C(=O)N[C@@H](CC1CC1)C(=O)C(=O)NC)C(C)(C)C` stands less than 0.1 µM; under `CCC[C@H](NC(=O)[C@@H]1C[C@]2(CC(c3cc(C)c(OCC)c(C)c3)=NO2)CN1C(=O)[C@@H](NC(=O)OC1CCCC1)C(C)(C)C)C(=O)C(=O)NC`, 0.1 to 0.5 µM. On the same count and under the same terms, with `CCC[C@H](NC(=O)[C@@H]1C[C@]2(CC(N3CCCCC3)=NO2)CN1C(=O)[C@@H](NC(=O)OC1CCCC1)C(C)(C)C)C(=O)C(=O)NC1CC1` the figure was 0.1 to 0.5 µM; with `CNC(=O)C(=O)[C@H](CC1CC1)NC(=O)[C@@H]1C[C@]2(CC(c3cc(C)c(OC)cc3OC)=NO2)CN1C(=O)[C@@H](NC(=O)OC1CCCC1)C(C)(C)C`, less than 0.1 µM.

For the molecule `CCC[C@H](NC(=O)[C@@H]1C[C@]2(CC(c3cc(C)c(OC)c(C)c3)=NO2)CN1C(=O)[C@@H](NC(=O)OC(C)(C)C)C(C)(C)C)C(=O)C(N)=O`, under setting [2], the Ki was less than 0.1 µM. Still for that read-out and setting: with `CCC[C@H](NC(=O)[C@@H]1C[C@]2(CC(c3cccc(Cl)c3)=NO2)CN1C(=O)[C@@H](NC(=O)CC1CC2CCC1C2)C(C)(C)C)C(=O)C(=O)NC` (stereo partly shown) the figure was less than 0.1 µM; with `CCC[C@H](NC(=O)[C@@H]1C[C@]2(CC(c3cc(C)c(OC)c(C)c3)=NO2)CN1C(=O)[C@@H](NC(=O)CC1CCCCCC1)C(C)(C)C)C(=O)C(=O)NC`, less than 0.1 µM; with `CNC(=O)C(=O)[C@H](CC1CC1)NC(=O)[C@@H]1C[C@]2(CC(c3cc(C)c(OC)c(C)c3)=NO2)CN1C(=O)[C@@H](NC(=O)OC1CCCC1)C(C)(C)OC`, less than 0.1 µM. For the molecule `COc1c(C)cc(C2=NO[C@]3(C2)C[C@@H](C(=O)N[C@@H](CC2CC2)C(=O)C(N)=O)N(C(=O)[C@@H](NC(=O)OC2CCCC2)C(C)(C)C)C3)cc1C`, under setting [2], the Ki is less than 0.1 µM. Take `CCC[C@@H](NC(=O)[C@@H]1C[C@]2(CC(c3cc(C)c(OCC)c(C)c3)=NO2)CN1C(=O)[C@@H](NC(=O)CC1CCCCC1)C(C)(C)C)C(=O)C(=O)NC1CC1`: under setting [1], the Ki fell in the range of 0.1 to 0.5 µM. The same measure, in the same setting: under `COc1c(C)cc(C2=NO[C@]3(C2)C[C@@H](C(=O)N[C@@H](CC2CC2)C(=O)C(N)=O)N(C(=O)[C@@H](NC(=O)[C@H]2C[C@@H]2c2ccccc2)C(C)(C)C)C3)cc1C` stands less than 0.1 µM; under `CCC[C@H](NC(=O)[C@@H]1C[C@]2(CC(c3cc(Cl)c(OCC)cc3OC)=NO2)CN1C(=O)[C@@H](NC(=O)OC(C)(C)C)C(C)(C)C)C(=O)C(=O)NC1CC1`, less than 0.1 µM. Consider `CCC[C@H](NC(=O)[C@@H]1C[C@]2(CC(c3cc(C)c(OCC)c(Cl)c3)=NO2)CN1C(=O)[C@@H](NC(=O)OC1CCCC1)C(C)(C)C)C(=O)C(=O)NC1CC1`, for which, under setting [2], the Ki was in the range of 0.1 to 0.5 µM. With `CNC(=O)C(=O)[C@H](CC1CC1)NC(=O)[C@@H]1C[C@]2(CC(c3cccc(Cl)c3)=NO2)CN1C(=O)[C@@H](NC(=O)[C@@H]1C[C@H]1C1CCCCC1)C(C)(C)C`, the Ki under setting [1] was less than 0.1 µM. `COc1cc(OC)c(C2=NO[C@]3(C2)C[C@@H](C(=O)N[C@@H](CC2CC2)C(=O)C(=O)NC2CC2)N(C(=O)[C@@H](NC(=O)OC2CCCC2)C(C)(C)C)C3)cc1Cl`: under setting [2], the Ki was less than 0.1 µM. Still for that read-out and setting: with `COc1c(C)cc(C2=NO[C@]3(C2)C[C@@H](C(=O)N[C@@H](CC2CC2)C(=O)C(=O)NC2CC2)N(C(=O)[C@@H](NC(=O)OC2CCCC2)C(C)(C)C)C3)cc1C` the figure was less than 0.1 µM. Consider `CCC[C@H](NC(=O)[C@@H]1C[C@]2(CC(c3cccc(Cl)c3)=NO2)CN1C(=O)[C@@H](NC(=O)CC1CCCCC1)C(C)(C)C)C(=O)C(=O)NCC(F)(F)F`, for which the Ki under setting [1] lay in the range of 0.1 to 0.5 µM. Regarding `CNC(=O)C(=O)[C@H](CC1CC1)NC(=O)[C@@H]1C[C@]2(CC(c3cc(Cl)c(OC)cc3OC)=NO2)CN1C(=O)[C@@H](NC(=O)[C@H]1C[C@@H]1c1ccccc1)C(C)(C)C`, the Ki under setting [2] was less than 0.1 µM. With `CNC(=O)C(=O)[C@H](CC1CC1)NC(=O)[C@@H]1C[C@]2(CC(c3cc(C)c(OC)cc3OC)=NO2)CN1C(=O)[C@@H](NC(=O)CC1CCCCC1)C(C)(C)C`, the Ki under setting [1] was less than 0.1 µM.

For `CNC(=O)C(=O)[C@H](CC1CC1)NC(=O)[C@@H]1C[C@]2(CC(c3cccc(Cl)c3)=NO2)CN1C(=O)[C@@H](NC(=O)C1(C)CC1)C(C)(C)C`, the Ki under setting [1] lay within 0.1 to 0.5 µM.

Turning to `CCC[C@H](NC(=O)[C@@H]1C[C@]2(CC(c3cc(Cl)ccc3OC)=NO2)CN1C(=O)[C@@H](NC(=O)CC(C)(C)C)C(C)(C)C)C(=O)C(=O)NC1CC1`, the Ki under setting [2] was less than 0.1 µM.

Regarding `CCC[C@H](NC(=O)[C@@H]1C[C@]2(CC(c3cc(Cl)c4c(c3)OCCO4)=NO2)CN1C(=O)[C@@H](NC(=O)CC1CCCCC1)C(C)(C)C)C(=O)C(=O)NC1CC1`, the Ki under setting [2] was less than 0.1 µM. Still for that read-out and setting: under `CCC[C@H](NC(=O)[C@@H]1C[C@]2(CC(c3cc(Cl)c(OC)cc3OC)=NO2)CN1C(=O)[C@@H](NC(=O)CC1CCCCC1)C(C)(C)C)C(=O)C(=O)NC` stands less than 0.1 µM. Take `CCC[C@H](NC(=O)[C@@H]1C[C@]2(CC(c3nccc4ccccc34)=NO2)CN1C(=O)[C@@H](NC(=O)OC1CCCC1)C(C)(C)C)C(=O)C(=O)NC`: the Ki under setting [2] is 0.1 to 0.5 µM. Turning to `CNC(=O)C(=O)[C@H](CC1CC1)NC(=O)[C@@H]1C[C@]2(CC(c3cccc(Cl)c3)=NO2)CN1C(=O)[C@@H](NC(=O)[C@H]1CC12CCCCC2)C(C)(C)C`, under setting [1], the Ki is less than 0.1 µM.

`COc1c(C)cc(C2=NO[C@]3(C2)C[C@@H](C(=O)N[C@@H](CC2CC2)C(=O)C(N)=O)N(C(=O)[C@@H](NC(=O)[C@@H]2C[C@H]2c2ccccc2)C(C)(C)C)C3)cc1C`: the Ki under setting [1] was less than 0.1 µM. Still for that read-out and setting: with `CNC(=O)C(=O)[C@H](CC1CC1)NC(=O)[C@@H]1C[C@]2(CC(c3cccc(Cl)c3)=NO2)CN1C(=O)[C@@H](NC(=O)C1C(C)(C)C1(C)C)C(C)(C)C` the figure was 0.1 to 0.5 µM.

For the molecule `CCC[C@H](NC(=O)[C@@H]1C[C@]2(CC(c3cccc(Cl)c3)=NO2)CN1C(=O)[C@@H](NC(=O)OC1CCCCC1)C(C)(C)C)C(=O)C(=O)NC1CC1`, the Ki under setting [2] was less than 0.1 µM. Still for that read-out and setting: under `COc1c(C)cc(C2=NO[C@]3(C2)C[C@@H](C(=O)N[C@@H](CC2CC2)C(=O)C(N)=O)N(C(=O)[C@@H](NC(=O)[C@H]2C[C@@H]2c2ccccc2)C(C)(C)C)C3)cc1Cl` stands less than 0.1 µM; under `CNC(=O)C(=O)[C@@H](CC1CC1)NC(=O)[C@@H]1C[C@]2(CC(c3cccc(Cl)c3)=NO2)CN1C(=O)[C@@H](NC(=O)CC1CCCCC1)C(C)(C)C`, more than 0.5 µM. Regarding `COc1cc(OC)c(C2=NO[C@]3(C2)C[C@@H](C(=O)N[C@@H](CC2CC2)C(=O)C(N)=O)N(C(=O)[C@@H](NC(=O)OC2CCCC2)C(C)(C)C)C3)cc1C`, under setting [1], the Ki is less than 0.1 µM. On the same count and under the same terms, under `CCC[C@H](NC(=O)C1C[C@]2(CC(c3cccc(Cl)c3)=NO2)CN1C(=O)[C@@H](NC(=O)C1C[C@@H]1F)C(C)(C)C)C(=O)C(=O)NC1CC1` (stereo partly shown) stands less than 0.1 µM; under `CCOc1c(C)cc(C2=NO[C@]3(C2)C[C@@H](C(=O)N[C@@H](CC2CC2)C(=O)C(=O)NC)N(C(=O)[C@@H](NC(=O)OC(C)(C)C)C(C)(C)C)C3)cc1C`, less than 0.1 µM. `COc1c(C)cc(C2=NO[C@]3(C2)C[C@@H](C(=O)N[C@@H](CC2CC2)C(=O)C(N)=O)N(C(=O)[C@@H](NC(=O)OC(C)(C)C)C(C)(C)C)C3)cc1C`: the Ki under setting [2] was less than 0.1 µM. Take `CNC(=O)C(=O)C(CC1CC1)NC(=O)C1CC2(CC(c3cccc(Cl)c3)=NO2)CN1C(=O)C(NC(=O)C1CC1c1ccccc1F)C(C)(C)C` (stereo not shown): under setting [1], the Ki is less than 0.1 µM.
